Here are results for 1 substance from article PMC4547098, “Structural basis of pathogen recognition by an integrated HMA domain in a plant NLR immune receptor” (2015).

In this experiment the target is AVR-PikA with non-cleavable C-terminal 6xHis tag (pOPINE) (Magnaporthe oryzae) (UniProt C4B8B8). The experiment in a line: SPR.

For the substance “Pikp-HMA domain (HMA integrated domain of the rice NLR Pikp-1) (from UniProt E9KPB5 186-258) (domain or fragment)”, the Kd came out at 710 nM.

In general, Kd refers to the free concentration of one partner at which half of the binding sites on the other are occupied at equilibrium, for simple one-to-one binding. Read a high Kd as lower affinity.
